Experimental data reported in publication PMC3866925, “Functional characterization of two members of histidine phosphatase superfamily in Mycobacterium tuberculosis” (BMC Microbiology, 2013).

Test system: O=C(O)[C@H](O)COP(=O)(O)O
Experiment: purified protein
Conditions: pH 7.0

Question: For “C-His-Rv0489 (Mycobacterium tuberculosis H37Rv)”, which Km is on record?
Answer: 400 ± 20 µM

Question: And the kcat/Km?
Answer: 1.04e+07 M⁻¹ s⁻¹
